The source of these data is paper PMC8880671, “Facial Synthesis and Bioevaluation of Well-Defined OEGylated Betulinic Acid-Cyclodextrin Conjugates for Inhibition of Influenza Infection” (Molecules, 2022).

By UniProt entry, the sequences of proteins in these tests, tags left out. Residues count along the entry.
UniProt P03454, 18-565: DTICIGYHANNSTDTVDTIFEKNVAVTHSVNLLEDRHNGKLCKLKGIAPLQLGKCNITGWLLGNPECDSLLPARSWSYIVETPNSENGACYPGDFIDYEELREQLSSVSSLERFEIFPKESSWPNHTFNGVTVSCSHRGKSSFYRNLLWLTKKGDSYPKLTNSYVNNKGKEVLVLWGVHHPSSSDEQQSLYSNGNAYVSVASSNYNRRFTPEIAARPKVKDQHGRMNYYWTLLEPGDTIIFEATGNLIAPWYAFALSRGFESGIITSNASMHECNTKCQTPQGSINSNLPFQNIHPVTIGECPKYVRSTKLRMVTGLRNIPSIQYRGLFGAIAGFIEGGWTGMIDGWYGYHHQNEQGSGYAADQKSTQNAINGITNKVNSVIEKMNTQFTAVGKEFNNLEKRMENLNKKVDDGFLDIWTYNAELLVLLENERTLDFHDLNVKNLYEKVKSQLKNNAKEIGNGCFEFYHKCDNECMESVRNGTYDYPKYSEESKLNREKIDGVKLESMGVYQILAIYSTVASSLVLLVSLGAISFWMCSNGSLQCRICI

Broadly, the Kd is the constant that tells how readily two partners part at equilibrium.

The assay deals with influenza HA protein (Influenza A virus, UniProt P03454). The conditions noted are these: read-out: KD for influenza HA protein; SPR, HA immobilized on CM5 chip (Figure S2).

“Hexakis 6-Deoxy-6-[4-N-[(3,6,9,12,15,18-Hexaoxaheneicos-20-yn-1-yl)-3β-hydroxy-lup-20(29)-en-28-oyl]-aminomethyl-1H-1,2,3-triazol-1-yl]-α-CD [Compound 81]”: the Kd is above 10 µM.

Take “Octakis 6-Deoxy-6-[4-N-[(3,6,9,12,15,18-Hexaoxaheneicos-20-yn-1-yl)-3β-hydroxy-lup-20(29)-en-28-oyl]-aminomethyl-1H-1,2,3-triazol-1-yl]-γ-CD [Compound 83]”: the Kd is above 10 µM.
